Reference: PMC11723632 (PLOS Pathogens, 2024)

Molecular target: EBOV GP-ΔM (EBOV GP ectodomain lacking the mucin-like domain) (Zaire ebolavirus, Mayinga-76 …, UniProt Q05320, excluding residues 312–463, N-linked glycan on Asn563)
Details: both partners purified

B1: Nanosota-EB1-His (VHH)
VHH: QVQLQESGGGQVQAGGSLRLSCAASGSTSVIYAMGWYRQAPGKQRELVAAITRGVGSTNYADSVKGRFTISRDNAKNTMYLQMNSLKPEDTAVYYCNARLLVAPPPYEYDYWGQGTQVTVSS
stoichiometry N: 2 EB1 molecules per GP-ΔM trimer

B2: Nanosota-EB2-His (VHH)
VHH: QVQLQESGGGVVQAGGSLRLSCSASGRTFSNYAMAWFRQAPGKDREFAAGINYNGERTAYADSVKGRFTISRDDAKNTVYLQMNSLKPEDTAVYSCAARPWSIANLAYTYDSWGQGTQVTVSS
stoichiometry N: 3 EB2 molecules per GP-ΔM trimer
